Pooled drug test results. Numbers come from NIAID ChemDB, via PubChem.

All rows: growth or infection tests; organism: Bovine viral diarrhea virus; measure: EC50

Blank or dashed fields: not listed here.

compound,strain or isolate,cells,read by,result
CCCN(CCC)CCSc1nnc2c(n1)[nH]c1ccccc12,NADL,MDBK,plaque count,0.0006 µM
C[C@@]1(O)[C@H](O)[C@@H](COP(=O)(O)OP(=O)(O)OP(=O)(O)O)O[C@H]1n1ccc2c(N)ncnc21,-,MDBK cells,neutral red,0.3 µM
COc1ccc(Cn2ccc3nc(-c4ccccc4)nc-3c2)cc1,PE515,MDBK,cytopathic effect,0.032 µg/mL
Nc1nc(=O)n2ccn(C3O[C@H](CO)[C@@H](O)[C@H]3O)c2n1,-,-,-,>100 µM
O=c1nc(NO)ccn1[C@@H]1O[C@H](CO)[C@@H](O)[C@H]1O,-,MDCK,virus yield,<2 µM
O=C(Nc1ccccn1)c1ccc2cccnc2n1,NADL,WST-1,cytopathic effect,>8 µM
FC(F)(F)c1ccccc1Cn1ccc2nc(-c3ccccc3)nc-2c1,PE515,MDBK,cytopathic effect,0.25 µg/mL
CC1S/C(=N/N=C2\C(=O)Nc3ccc([N+](=O)[O-])cc32)N(c2ccccc2)C1=O,-,MDBK,cytopathic effect,>7 µg/mL
O=C(Nc1nc2ccccc2s1)c1ccc2cccnc2n1,NADL,WST-1,cytopathic effect,>0.65 µM
Fc1cccc(Cn2ccc3nc(-c4ccccc4)nc-3c2)c1,PE515,MDBK,cytopathic effect,0.246 µg/mL
Brc1ccc(Cn2ccc3nc(-c4ccccc4)nc-3c2)cc1,NADL (TYPE 1),MDBK,cytopathic effect,0.04 µM
N=C(N)c1ncn([C@@H]2O[C@H](CO)[C@@H](O)[C@H]2O)n1,-,-,-,1–100 µM
CCNC(=S)N=Nc1c(O)[nH]c2ccc([N+](=O)[O-])cc12,-,MDBK,cytopathic effect,>50 µg/mL
CC(c1ccccc1)n1ccc2nc(-c3ccccc3)nc-2c1,PE515,MDBK,cytopathic effect,0.325 µg/mL
O=[N+]([O-])c1ccc2c(c1)c(N=NC(=S)Nc1ccccc1)c(O)n2CN1CCOCC1,-,MDBK,cytopathic effect,>50 µg/mL
C[C@@]1(O)[C@H](O)[C@@H](CO)O[C@H]1n1ccn2c(=O)nc(N)nc12,-,-,-,>100 µM
Clc1ccc(Cn2ccc3nc(-c4ccccc4)nc-3c2)s1,PE515,MDBK,cytopathic effect,0.014 µg/mL
CNC(=S)N=Nc1c(O)n(CN2CCOCC2)c2ccc([N+](=O)[O-])cc12,-,MDBK,cytopathic effect,>20 µg/mL
Nc1nc(=O)n2ccn([C@@H]3C[C@@H](O)[C@H](CO)O3)c2n1,-,-,-,>100 µM
CC1S/C(=N/N=C2\C(=O)Nc3ccc([N+](=O)[O-])cc32)N(c2ccc(Cl)cc2)C1=O,-,MDBK,cytopathic effect,48 µg/mL
O=C(Nc1nccs1)c1ccc2cccnc2n1,NADL,WST-1,cytopathic effect,>0.78 µM
Cc1ccc(NC(=S)N=Nc2c(O)n(CN3CCCCC3)c3ccc([N+](=O)[O-])cc23)cc1,-,MDBK,cytopathic effect,>19 µg/mL
Cc1cn([C@@H]2O[C@H](CO)[C@](O)(C(F)(F)F)[C@H]2O)c(=O)[nH]c1=O,-,-,-,≥100 µM
Brc1ccc(Cn2ccc3nc(-c4cccc(I)c4)nc-3c2)cc1,-,-,cytopathic effect,0.4 µM
CCCCNC(=S)N=Nc1c(O)[nH]c2ccc([N+](=O)[O-])cc12,-,MDBK,cytopathic effect,>50 µg/mL

Again, the opening 2 rows:

{"compound": "CCCN(CCC)CCSc1nnc2c(n1)[nH]c1ccccc12", "strain or isolate": "NADL", "cells": "MDBK", "read by": "plaque count", "result": "0.0006 µM"}
{"compound": "C[C@@]1(O)[C@H](O)[C@@H](COP(=O)(O)OP(=O)(O)OP(=O)(O)O)O[C@H]1n1ccc2c(N)ncnc21", "cells": "MDBK cells", "read by": "neutral red", "result": "0.3 µM"}

ECn: concentration that inhibits the pathogen or its effect by n%. Conditions beyond the fields shown may differ between rows. a–b is a range or a potency band.